Compound potency records, mixed from different reports. Data source: NIAID ChemDB in PubChem.

Shared fields: growth or infection tests; agent: Mycobacterium smegmatis; method: resazurin; measure: MIC

Blank or dashed fields: not listed here. Rows are shuffled and stem from different studies.

CSCCC/C=N/NC(=O)c1cnc2cccc(C(F)(F)F)c2c1NC(CSc1ccccc1)CC(=O)N(C)C ; strain: ATCC 19420 ; value: >100 µg/mL
N=C(N)N1N=C(/C=C/c2ccc(Cl)cc2)CC1c1ccc(Cl)cc1 ; value: 1.74 µM
CN(C)C(=O)CC(CSc1ccccc1)Nc1c(C(=O)N/N=C/c2ccc(F)cc2)cnc2cc(F)ccc12 ; strain: ATCC 19420 ; value: 10 µg/mL
Cc1ccc(-c2nn(-c3ccc(Cl)cc3)cc2C2CC(c3ccc4c(c3)CCO4)=NN2)cc1 ; value: 500 µg/mL
NNC(=O)c1ccncc1 ; value: 15.6 µg/mL
Cc1ccc(C2=NNC(c3cn(-c4ccc(Cl)cc4)nc3-c3ccc(Cl)cc3)C2)o1 ; value: 62.5 µg/mL
C=C[C@]1(C)C2=C3c4c([nH]c5cccc(c45)C(C)(C)[C@H]3C[C@H]1Cl)C(C)(C)C(C#N)=C2 ; value: 49.7 µM
C=C1C(=O)[C@@]23C(=O)O[C@H]4CCC(C)(C)[C@H]5C(=O)OC[C@@]45[C@@H]2CC[C@@H]1[C@H]3OC(=O)C1CCCC1 ; strain: ATCC 19420 ; value: 4 µg/mL
COc1ccccc1/C=C/C1=NN(C(=N)N)C(c2ccccc2OC)C1 ; value: 1.78 µM
COc1ccc(/C=N/NC(=O)c2cnc3cc(F)ccc3c2NC(CSc2ccccc2)CC(=O)N(C)C)cc1O ; strain: ATCC 19420 ; value: >100 µg/mL
Clc1ccc(-n2cc(C3CC(c4ccc(-c5ccccc5)cc4)=NN3)c(-c3cccs3)n2)cc1 ; value: 7.8 µg/mL
O=C(O)CC1Sc2nnc(Cc3ccc(Br)cc3)n2N=C1c1ccc(Cl)cc1 ; value: 20 µM
CC[C@H](C)[C@@H](NC(=O)[C@@H](CCC(=O)O)NC(=O)[C@H](Cc1cnc[nH]1)NC(=O)[C@H](CC(C)C)NC(=O)[C@@H](C)N)C(=O)N[C@H]1CCCCNC1=O ; value: >50 µg/mL
CSCCC/C=N/NC(=O)c1cnc2cc(F)ccc2c1NC(CSc1ccccc1)CC(=O)N(C)C ; strain: ATCC 19420 ; value: >100 µg/mL
C=C1C(=O)[C@@]23C(=O)O[C@H]4CCC(C)(C)[C@H]5C(=O)OC[C@@]45[C@@H]2CC[C@@H]1[C@H]3OC(=O)c1ccccc1 ; strain: ATCC 19420 ; value: 8 µg/mL
Cc1ccc(-c2nn(-c3ccc(Cl)cc3)cc2C2CC(c3ccc(-c4ccccc4)cc3)=NN2)cc1 ; value: 500 µg/mL
CSc1ccccc1/C=N/NC(=O)c1cnc2cc(F)ccc2c1NC(CSc1ccccc1)CC(=O)N(C)C ; strain: ATCC 19420 ; value: >100 µg/mL
Clc1ccc(-c2nn(-c3ccc(Cl)cc3)cc2C2CC(c3ccc(-c4ccccc4)cc3)=NN2)cc1 ; value: 15.6 µg/mL
C=C1C(=O)[C@@]23C(CC[C@@H]1[C@H]2OC(=O)c1ccc(F)cc1)[C@@]12COC3(O)[C@@H](O)[C@@H]1C(C)(C)CC[C@@H]2OC(C)=O ; strain: ATCC 19420 ; value: 4 µg/mL
CSc1ccccc1/C=N/NC(=O)c1cnc2cccc(C(F)(F)F)c2c1NC(CSc1ccccc1)CC(=O)N(C)C ; strain: ATCC 19420 ; value: >100 µg/mL
CC1(C)CC[C@]2(C(=O)O)CC[C@]3(C)C(CC[C@@H]4[C@@]5(C)C[C@H](O)CC(C)(C)[C@@H]5CC[C@]43C)[C@@H]2C1 ; value: 100 µg/mL
C=C1C(=O)[C@@]23C(=O)O[C@H]4CCC(C)(C)[C@H]5[C@H](O)OC[C@@]45[C@@H]2CC[C@@H]1[C@H]3O ; strain: ATCC 19420 ; value: >64 µg/mL
CN(C)C(=O)CC(CSc1ccccc1)Nc1c(C(=O)N/N=C/c2ccc(Br)s2)cnc2cc(F)ccc12 ; strain: ATCC 19420 ; value: >100 µg/mL
CNC(C)C1CC[C@@H](N)[C@@H](O[C@H]2[C@H](O)[C@@H](OC3OC[C@](C)(O)[C@H](NC)[C@H]3O)[C@H](N)C[C@@H]2N)O1 ; value: 4 µM

For reference, 2 entries again:

structure	strain	value
Cc1ccc(-c2nn(-c3ccc(Cl)cc3)cc2C2CC(c3ccc4c(c3)CCO4)=NN2)cc1	-	500 µg/mL
CN(C)C(=O)CC(CSc1ccccc1)Nc1c(C(=O)N/N=C/c2ccc(F)cc2)cnc2cc(F)ccc12	ATCC 19420	10 µg/mL